Sequence variants of PSTVd loop 6 after infection

From the data files of Wu et al. 2024, doi:10.1371/journal.ppat.1012142.

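Three N. benthamiana plants were inoculated with the whole mutant pool. Samples came from the inoculated region at 5 days, the leaf margin at 10 and upper systemic leaves at 12.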

PSTVd intermediate strain, loop 6: wild type UGACCGCGAG, pool pattern UNNNCGNNNG; upper and lower strand joined, each 5' to 3', the first 5 letters being the upper strand, closing pairs included.

Values are reads per thousand in the sample; higher means more abundant, 0 means not found. Each value is the mean of three plants. "Pool" is the share in the plasmid pool used as inoculum, on the same scale. The inoculated region was read from the minus strand, the other sites from the plus strand. IR is the inoculated region, LM the leaf margin, Sys the systemic leaves.

| # | sequence | pool | IR | LM | Sys |
|---|---|---|---|---|---|
| 1 | UCACCGAACG | 0.157 | 0.101 | 0.00773 | 0 |
| 2 | UUUCCGAUGG | 0.340 | 0.0898 | 0.00773 | 0 |
| 3 | UAGACGACAG | 0.209 | 0.112 | 0.00920 | 0 |
| 4 | UAGACGAACG | 0.288 | 0.131 | 0.0184 | 0 |
| 5 | UGGUCGUGUG | 0.288 | 0.112 | 0 | 0 |
| 6 | UAAUCGCAUG | 0.248 | 0.0826 | 0 | 0.00684 |
| 7 | UGUCCGGUCG | 0.261 | 0.0762 | 0 | 0 |
| 8 | UGUUCGGGAG | 0.379 | 0.586 | 0.0415 | 0.00684 |
| 9 | UUGUCGUUCG | 0.314 | 0.126 | 0.0247 | 0 |
| 10 | UGUCCGUUAG | 0.366 | 0.102 | 0 | 0 |
| 11 | UCCCCGCGGG | 0.288 | 0.0831 | 0.0345 | 0 |
| 12 | UGUUCGAGGG | 0.170 | 0.0483 | 0 | 0 |
| 13 | UUAACGCCCG | 0.314 | 0.556 | 0.108 | 0 |
| 14 | UCAACGCAGG | 0.183 | 0.0837 | 0.00773 | 0.0406 |
| 15 | UGUUCGCGAG | 0.431 | 0.318 | 0.877 | 0.0801 |
| 16 | UGACCGCUAG | 0.0784 | 0.250 | 0.503 | 0.615 |
| 17 | UUUCCGACGG | 0.222 | 0.102 | 0.155 | 0 |
| 18 | UUGGCGCGGG | 0.366 | 0.119 | 0.00773 | 0 |
| 19 | UUAUCGGUAG | 0.275 | 0.619 | 0.0592 | 0 |
| 20 | UACACGUUCG | 0.105 | 0.0892 | 0.0261 | 0 |
| 21 | UGAUCGACCA | 0.0131 | 0 | 0 | 0 |
| 22 | UGUUCGAAUG | 0.418 | 0.113 | 0 | 0 |
| 23 | UUGGCGCGAG | 0.536 | 0.316 | 0.0169 | 0.105 |
| 24 | UUUACGAGUG | 0.248 | 0.112 | 0 | 0 |
| 25 | UACACGUCCG | 0.157 | 0.0726 | 0 | 0 |
| 26 | UGCUCGCGCG | 0.105 | 0.102 | 0.0276 | 0 |
| 27 | UGACAGUCAG | 0.0131 | 0 | 0 | 0 |
| 28 | UAGUCGACAG | 0.222 | 0.0779 | 0.00920 | 0 |
| 29 | UGUACGACCG | 0.144 | 0.113 | 0 | 0 |
| 30 | UGAUCGGGCG | 0.144 | 0.0835 | 0 | 0 |
| 31 | UUGCCGCUGG | 0.144 | 0.0897 | 0 | 0 |
| 32 | UAUCCGCGGG | 0.327 | 0.125 | 0 | 0 |
| 33 | UCCCCGUAUG | 0.405 | 0.0889 | 0.144 | 0.00673 |
| 34 | UUUACGCUCG | 0.222 | 0.114 | 0 | 0 |
| 35 | UUAGCGGUCG | 0.261 | 0.0715 | 0.00920 | 0 |
| 36 | UACACGCGCG | 0.170 | 0.0773 | 0.00773 | 0 |
| 37 | UCGGCGGUAG | 0.288 | 0.101 | 0.00773 | 0 |
| 38 | UCACCGCAAG | 0.0392 | 0.637 | 0.112 | 0.0263 |
| 39 | UGCGCGAUGG | 0.275 | 0.0779 | 0 | 0 |
| 40 | UACACGUCUG | 0.275 | 0.107 | 0 | 0 |
| 41 | UGACCGUGUG | 0.484 | 0.299 | 0.339 | 0.154 |
| 42 | UCUUCGGGGG | 0.144 | 0.0656 | 0.00920 | 0 |
| 43 | UCGACGGGGG | 0.105 | 0.0714 | 0 | 0 |
| 44 | UAAUCGACAG | 0.327 | 0.0953 | 0 | 0.0203 |
| 45 | GUACCGGUUG | 0.0131 | 0 | 0 | 0 |
| 46 | UUAUCGAUCG | 0.379 | 0.0889 | 0 | 0 |
| 47 | UCACCGUACG | 0.196 | 0.0840 | 0.0324 | 0 |
| 48 | UUAGCGUCCG | 0.288 | 0.0836 | 0 | 0 |
| 49 | UUGUCGUUGG | 0.601 | 0.0949 | 0 | 0.0137 |
| 50 | UCUCCUCGAG | 0.0131 | 0 | 0 | 0 |
| 51 | UAGCCGAGGG | 0.288 | 0.0829 | 0.0592 | 0 |
| 52 | UAAUCGCUUG | 0.144 | 0.107 | 0.00773 | 0 |
| 53 | UAAACGAUCG | 0.209 | 0.588 | 0.0499 | 0.0535 |
| 54 | UCACCGACCG | 0.144 | 0.119 | 0 | 0 |
| 55 | UCAGCGGGAG | 0.157 | 0.639 | 0.0599 | 0.0204 |
| 56 | GGACCGCACG | 0.0131 | 0.00579 | 0 | 0 |
| 57 | UCAUCUGUCC | 0.0131 | 0 | 0 | 0 |
| 58 | UGAUCGUGCG | 0.261 | 0.102 | 0.00920 | 0 |
| 59 | UAAUCGAUAG | 0.314 | 0.107 | 0.0541 | 0 |
| 60 | UUAACGCGCG | 0.183 | 0.666 | 0.0822 | 0 |
| 61 | UGUCCGAUAG | 0.314 | 0.143 | 0.0541 | 0 |
| 62 | UGAACGUUUG | 0.366 | 0.108 | 0 | 0 |
| 63 | UUCACGCUAG | 0.118 | 0.112 | 0.0184 | 0 |
| 64 | UGGUCGCAGG | 0.235 | 0.0885 | 0 | 0 |
| 65 | UGUUCGAGCG | 0.183 | 0.102 | 0.00773 | 0 |
| 66 | UGUGCGUCGG | 0.248 | 0.0886 | 0.0261 | 0 |

With 36,220-57,551 reads a sample, very low values are single reads. For reference, wild type rose from 20.7 per thousand in the pool to 195, 198, 203 (inoculated region), 629, 591, 734 (leaf margin) and 942, 870, 868 (systemic leaves). Sequences that differ at fixed positions probably stem from PCR or sequencing errors, and defective variants can be carried along by functional ones.